In assay [1] the target is MERS.hFc (mAb2664-L1) (MERS-CoV). Briefly: Luminex, supernatant.
In assay [2] the target is Bt-MERS.hFc (mAb2664-L2) (MERS-CoV). Put plainly: Luminex, supernatant.
Assay [3] deals with MERS.mFc (mAb2663-L1) (MERS-CoV). Briefly: Luminex, supernatant.
Assay [4] has as its target SARS-COV-2 RBD extracellular domain expressed with a C-terminal myc-myc-hexahistidine tag (SARS-COV-2 RBD-MMH) (SARS-CoV-2). Briefly: SPR.

B1: mAb10937 (antibody, V domains shown)
VH: QITLKESGPTLVKPTQTLTLTCTFSGFSLSTNVVGVGWIRQPPGKALEWLALIYWNDDKRYSPSLKSRLTITKDTSKNQVVLTMTNMDPVDTATYYCAHGPTGDYFDYWGQGTLVTVSS
VL: not shown
As to B1, the values for the MFI in assay [1] and in assay [2] were 23 MFI and 29 MFI, respectively.

B2: mAb10984 (antibody, V domains shown)
VH: EVQLVESGGGLVQPGGSLRLSCAASGLTVNRNYMSWVRQAPGKGLEWVSLIYSGGSTYYADSVKGRFTISRDNSKNTLYLQMNSLRLEDTAVYYCARGELGIPYGMDVWGQGTTVTVSS
VL: QSVLTQPPSVSAAPGQKVTISCSGSSSNIGNNYVSWYQQLPGTAPKLLIYDNNKRPSGIPDRFSGSKSGTSATLGITGLQTGDEADYYCGTWDSSLSAGVFGGGTKLTVLG
For the molecule B2, the MFI in assay [3] was determined as 237 MFI; in assay [1], 341 MFI; in assay [2] it was 172 MFI.

B3: mAb10939 (antibody, V domains shown)
VH: EVQLVESGGGLVQPGGSLRLSCAASGLTVSSNYMNWVRQVPGKGLEWVSVIYSGGSKFYVDSVKGRFTISRHNSKNTLYLQMNSLRPEDTAVYYCTRDAQYYGMDVWGQGTTVTVSS
VL: DIQMTQSPSSLSASVGDRVTITCRASQSISTYLHWYQQKPGEAPKLLIYAASSLQSGVPSRFSGSGSGTDFTLTISSLQPEDFATYYCQQSYSTPPEIFGQGTKLEIKR
Broadly, the Kd is the equilibrium constant for the complex coming apart. High values mean lower affinity, low ones higher affinity. On to B3, for which, in assay [4], the “90 nM Ag Bound (RU)” value came out at 82.3 RU, the Kd turned out to be 17.4 nM and the “t1/2” value came out at 4.1 min.

B4: mAb10939 (antibody, V domains shown)
VH: EVQLVESGGGLVQPGGSLRLSCAASGLTVSSNYMNWVRQVPGKGLEWVSVIYSGGSKFYVDSVKGRFTISRHNSKNTLYLQMNSLRPEDTAVYYCTRDAQYYGMDVWGQGTTVTVSS
VL: DIQMTQSPSSLSASVGDRVTITCRASQSISTYLHWYQQKPGEAPKLLIYAASSLQSGVPSRFSGSGSGTDFTLTISSLQPEDFATYYCQQSYSTPPEIFGQGTKLEIKR
Take B4: the MFI in assay [3] was found to be 41 MFI; in assay [1], 27 MFI; in assay [2], 30 MFI.

B5: mAb10920 (antibody, V domains shown)
VH: QVQLVESGGGVVQPGRSLRLSCAASGFTFSYYGMHWVRQAPGKGLEWVAVIWYDGSNKFYADSVKGRFTISRDNSKNTLYLQMNSLRAEDTAVYYCAAARPGYYYGMDVWGQGTTVTVSS
VL: DIQMTQSPSSLSASVGDRVTITCRASQGISNYLAWFQQKPGKAPNSLIYAASSLQRGVPSKFSGSGSGTDFTLTISSLQPEDFATYYCQQYNSYPRTFGQGTKVEIKR
On to B5, for which the values for the MFI in assay [3], in assay [1] and in assay [2] were 38 MFI, 35 MFI and 44 MFI, respectively.

B6: mAb10930 (antibody, V domains shown)
VH: EVQLVESGGGLVQPGRSLRLSCAASGFTFDDYAMYWVRQAPGKGLEWVSGISWNSGSIGYADSVKGRFTISRDNAKNSLYLQMNSLRAADTALYYCAKDKDWNSRGYYYYGMDVWGQGTTVTVSS
VL: not shown
For the molecule B6, the MFI in assay [3] was determined as 29 MFI; in assay [1] it was 24 MFI; in assay [2] it was 29 MFI.

B7: mAb11004 (antibody, V domains shown)
VH: QVQLVESGGGVVQPGRSLRLSCVASGFTFSIYGMDWVRQAPGKGLEWVAVISYDGSNKYYADSVKGRFTISRDNSKNTLYLQMNSLRPEDTAVYYCAKDREAAADAFDIWGQGTMVTVSS
VL: DIQMTQSPSSVSASVGDRVTITCRASQGISSWLAWYQQKPGKAPKLLIYAASSLHSGVPSRFSGSGSGTDFTLTISSLQPEDFATYYCQQANSFRLTFGGGTKVEIKR
In the case of B7, in assay [4], the “90 nM Ag Bound (RU)” value amounted to 76.4 RU; the affinity, expressed as Kd, was 8.54 nM; the “t1/2” value stood at 3.6 min.

B8: mAb10985 (antibody, V domains shown)
VH: EVQLVESGGGLVQPGRSLRLSCAASGFTFDDYAMHWVRQAPGKGLEWVSGISWNRGSIGYADSVKGRFTISRDNAKNSLYLQMSSLRAEDTALYYCAKDGERWDSVVVPSARNGMDVWGQGTTVTVSS
VL: QSVLTQPPSVSGAPGQRVTISCTGSSSNIGAGYDVHWYQQLPGTAPKLLIYGNSNRPSGVPDRFSGSKSGTSASLAITGLQAEDEADYYCQSYDSSLSGSYVFGTGTKVTVLG
As to B8, the figures for the MFI in assay [3], in assay [1] and in assay [2] were 168 MFI, 195 MFI and 159 MFI, respectively.

B9: mAb10985 (antibody, V domains shown)
VH: EVQLVESGGGLVQPGRSLRLSCAASGFTFDDYAMHWVRQAPGKGLEWVSGISWNRGSIGYADSVKGRFTISRDNAKNSLYLQMSSLRAEDTALYYCAKDGERWDSVVVPSARNGMDVWGQGTTVTVSS
VL: QSVLTQPPSVSGAPGQRVTISCTGSSSNIGAGYDVHWYQQLPGTAPKLLIYGNSNRPSGVPDRFSGSKSGTSASLAITGLQAEDEADYYCQSYDSSLSGSYVFGTGTKVTVLG
B9: in assay [4], the “90 nM Ag Bound (RU)” value stood at 113 RU, binding was put at a Kd of 1.08 nM and the “t1/2” value is 7.5 min.

B10: mAb11006 (antibody, V domains shown)
VH: EVQLVESGGGLVQPGGSLRLSCAASGFIVSRNYMSWVRQAPGKGLEWVSVIYSGGSTFYADSVKGRFTISRHNSKNTLYLQMNSLKAEDTAVYYCARELRGYFDYWGQGTLVTVSS
VL: DIQLTQSPSFLSASVGDRVTITCWASQGISSYLAWYQQKPGKAPKLLIYAASTLQSGVPSRFSGSGSGTEFTLTISSLQPEDFATYYCQLLNSYPYTFGQGTKLEIKR
B10: in assay [4], the “90 nM Ag Bound (RU)” value was found to be 66.9 RU, binding was characterised by a dissociation constant (Kd) of 4.55 nM and the “t1/2” value was 26.3 min.

B11: mAb10914 (antibody, V domains shown)
VH: EVQLVESGGGLVQPGGSLRLSCAASGLIVSRNYMIWVRQAPGKGLEWVSVIYSGGSTFYADSVKGRFTISRHNSKNTLYLQMNSLRAEDTAVYYCARDLGTGGMDVWGQGTTVTVSS
VL: DIQLTQSPSFLSASVGDRVTITCWASQGISSYLAWYQQKPGKAPKLLIYAASTLQSGVPSRFSGSGSGTEFTLTISSLQPEDFATYYCQQLNSYPLTFGGGTKVEIKR
On to B11, for which the MFI in assay [3] came to 86 MFI; in assay [1] it was 71 MFI; in assay [2] it was 49 MFI.

B12: mAb11008 (antibody, V domains shown)
VH: EVQLVESGGGLVQPGGSLRLSCAASGFTVSSNYMTWVRQAPGKGLEWVSVIYSGGSTFYADSVKGRFTISRHNSENTLYLQMNSLRAEDTAVYYCARDLAAAGTDYWGQGALVTVSS
VL: DIQLTQSPSFLSASVGDRVTITCWASQGISSYLAWYQQKPGKAPKLLIYAASTLQSGVPSRFSGSGSGTEFTLTISSLQPDDFATYYCQHLNSYLYTFGQGTKLEIKR
For the molecule B12, in assay [4], the “90 nM Ag Bound (RU)” value amounted to 40.8 RU, binding was put at a Kd of 35.2 nM and the “t1/2” value stood at 3.5 min.

B13: mAb10913 (antibody, V domains shown)
VH: EVQLVESGGGLVQPGGSLRLSCAASGFTFRNYEMNWVRQAPGKGLEWVSYITSSGSTMYYADSVKGRFTISRDNAKNSLYLQMNSLRAEDTAVYYCARDGFYYYYAMDVWGQGTTVTVSS
VL: QSVLTQPPSVSAAPGQKVTISCSGSSSNIGNNYVSWYQQLPGTAPKLLIYDNNKRPSGIPDRFSGSKSGTSATLGITGLQTGDEADYYCGTWDSSLSVGRVFGTGTKVTVLG
As to B13, the MFI in assay [3] is 29 MFI; in assay [1], 28 MFI; in assay [2] it was 29 MFI.

B14: mAb10932 (antibody, V domains shown)
VH: EVQLVESGGGLVQSGGSLRLSCAASGLTVSSNYMSWVRQAPGKGLEWVSVIYSGGSTFYSDSVKGRFTISRHNSKNTLYLQMNSLRAEDTAVYYCARARGDAFDIWGQGTMVTVSS
VL: DIQMTQSPSSLSASVGDRVTITCQASQGISNYLNWYQQKPGKAPKLLISDASNLETGVPSRFSGSGSGTDFTFTISSLQPEDIATYYCQQYDNLRFFTFGPGTKVDIKR
As to B14, the MFI in assay [3] was 60 MFI; in assay [1], 49 MFI; in assay [2], 40 MFI.

B15: mAb10966 (antibody, V domains shown)
VH: EVQLVESGGGLVQPGGSLRLSCAASGLTVSSNYMSWVRQAPGKGLEWVSVIYSGGSTFYADSVKGRFTISRDNSKNTLYLQMNSLRPEDTAVYYCAREGRIAATGYGMDVWGQGTTVTVSS
VL: DIQMTQSPSSLSASVGDRVTITCQASQDISNYLNWYQQKPGKAPKLLIYDASNLGTGVPSRFSGSRSGTDFTFTISSLQPEDIATYYCHQYDNLPQTFGPGTKVDIKR
For the molecule B15, in assay [4], the “90 nM Ag Bound (RU)” value came to 97.4 RU, the Kd was determined as 1.54 nM and the “t1/2” value amounted to 31.6 min.

B16: mAb10935 (antibody, V domains shown)
VH: EVQLVESGGGLVQPGGSLRLSCAASGFTVSSNYMSWVRQAPGKGLEWVSLIYSGGSTYYADSVKGRFTISRHNSKNTLYLQMNSLRSEDTAVYYCARVPLGDYYYGMDVWGQGTTVTVSS
VL: DIQMTQSPSSLSASVGDRVTITCQASQDINKYLNWYQQKPGKAPKLLIYDASNLETGVPSRFSGSGSGTDFTFTISSLQPEDIATYYCQQSDNLPLTFGGGTKVEIKR
Regarding B16, the MFI in assay [3] came to 74 MFI; in assay [1], 67 MFI; in assay [2] it was 42 MFI.

B17: mAb10934 (antibody, V domains shown)
VH: not shown
VL: DIQMTQSPSSLSASVGDRVTITCQASQDIWNYINWYQQKPGKAPKLLIYDASNLKTGVPSRFSGSGSGTDFTFTISSLQPEDIATYYCQQHDDLPPTFGQGTKVEIKR
For the molecule B17, in assay [3], the MFI worked out at 77 MFI.

B18: mAb10938 (antibody, V domains shown)
VH: EVQLVESGGGLVQPGGSLRLSCAVSGFTVSSNYMSWVRQAPGKGLEWVSLIYSGGSTFYADSVKGRFTISRHNSKNTLYLQMNSLRAEDTAVYYCAREGGYSYDYNYWGQGTLVTVSS
VL: DIQMTQSPSSLSASVGDRVTITCQASQDIRNYLNWYQQKPGKAPKLLIYDASNLETGVPSRFSGIGSGTDFTFTISSLQPEDIATYYCQQYDNLPITFGQGTRLEIKR
On to B18, for which the MFI in assay [3] came to 86 MFI; in assay [1] it was 65 MFI; in assay [2], 46 MFI.

B19: mAb10933 (antibody, V domains shown)
VH: QVQLVESGGGLVKPGGSLRLSCAASGFTFSDYYMSWIRQAPGKGLEWVSYITYSGSTIYYADSVKGRFTISRDNAKSSLYLQMNSLRAEDTAVYYCARDRGTTMVPFDYWGQGTLVTVSS
VL: DIQMTQSPSSLSASVGDRVTITCQASQDITNYLNWYQQKPGKAPKLLIYAASNLETGVPSRFSGSGSGTDFTFTISGLQPEDIATYYCQQYDNLPLTFGGGTKVEIKR
In the case of B19, the values for the MFI in assay [3], in assay [1] and in assay [2] were 22 MFI, 21 MFI and 26 MFI, respectively.

Source of the values: patent US20240043504A1 (published 2024).
